Experimental data published in ChEMBL document CHEMBL1129987, “Structure-based design of nonpeptidic HIV protease inhibitors: the sulfonamide-substituted cyclooctylpyramones” (J Med Chem, 1997).

The compounds below were run against Human immunodeficiency virus type 1 protease (Human immunodeficiency virus 1, UniProt Q72874) (assay: Binding affinity against HIV-1 protease).
O=c1c2c(oc(O)c1C(c1cccc(NS(=O)(=O)c3ccccc3)c1)C1CC1)CCCCCC2 (stereo not drawn) was tested, and the pKi was 8.49. In the case of O=c1c2c(oc(O)c1[C@H](c1cccc(NS(=O)(=O)c3ccccc3)c1)C1CC1)CCCCCC2, the pKi was 8.49. O=c1c2c(oc(O)c1[C@@H](c1cccc(NS(=O)(=O)c3ccccc3)c1)C1CC1)CCCCCC2 gave a pKi of 8.12.

pKi: −log10 of the molar value.
